Tags and fusion partners may be left off the protein sequences shown.
Tested on: T1, TimR-Strep (Listeria monocytogenes EGD-e)
T1 sequence (looked up): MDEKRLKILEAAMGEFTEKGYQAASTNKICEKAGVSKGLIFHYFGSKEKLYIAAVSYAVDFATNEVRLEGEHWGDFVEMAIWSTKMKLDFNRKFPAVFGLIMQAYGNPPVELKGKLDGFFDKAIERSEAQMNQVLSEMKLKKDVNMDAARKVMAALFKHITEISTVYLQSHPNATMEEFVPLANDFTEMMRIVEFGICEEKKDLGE
Assay: EMSA
Details: boromycin; residues 1-206; probe letters rebuilt from the primers and the genome

CGTTGTAAAACGACGGGGAATTCCATGTTCTCTCCTCCACACTCAAATTGACCACTTAGTCAACTAGAGTATAATCTCTTTTGACCAGGTAGTCAATTACGAACTATAACACAATAAAAATCTGTAAGACTGTATCCAGTAAAAGTATCCAAATTACTGTTTTCATGCCAGCTCAAGTCTTTAAAAAATCACTTTTAGCTTGATAATGCTAATTTCAATAATTGCGTTATTCCGGATAGAATAACTATATTCCAGGTGATATAATACAGTATGTAAGAAAGTTTATGGTGGTGGCTAACTCTTTCAACATGAAAGGGGGATGCCTATGGCTTTTTTGTTAGGAACTCCTGGAAAGGATAACCCATGACCGTTTATGAAGCACTCTCTTTTGCAGTCGCTTTTACAACTTTAATGTTGTTACTAAACAGTCAAAATAACACAAAAAAATAACCACTCATAAACTTTGGACGGTTTAGCCCGGGGGATCCACTAGTTCTAGAG (double strand) [PtimABR promoter fragment]
binding result: binds

From paper doi:10.1101/2023.07.27.550809
